Data from patent US5348743A, “Anti-pathogenically effective compositions comprising lytic peptides and hydrolytic enzymes” (priority 1993, dated 1994).

Tested on: S. nodorum
Assay: Inhibitory effect of lytic peptides and hydrolytic enzymes against S. nodorum (microtiter plates, liquid pea medium, absorbance at 595 nm)
Assay type: cell-based, Septoria nodorum
Method: Microtiter plates were selected to investigate the inhibitory effect of lytic peptides and hydrolytic enzymes against S. nodorum. Test substances were added to 90 ul liquid pea medium which had been previously inoculated with 2.0×10^4 spores/ml medium of the test pathogen to give a final volume of 100 ul. The blank value of the test substances were determined by adding them to uninoculated liquid pea medium. The plates were evaluated after incubation in a wet chamber at 23° C. on a shaker in the dark for 48 hours.
a. Hydrolytic enzymes were purified from ethylene-treated bean leaves by the procedure described in Example 1.
b. Lytic peptides: The following antimicrobial peptides were tested at 20 ppm, 60 ppm and 200 ppm concentrations:
d. Combinations of test substances: Table 3 illustrates the composition of test solutions which were tested in duplicate/triplicate samples.
e. Evaluation: The growth of the pathogen was recorded by measuring the absorbance of the medium at 595 nm. The average of duplicate/triplicate samples was calculated and the corresponding enzyme blank was subtracted to give the net absorption of the growing mycelium. The inhibitory effect of the test substances used was determined by calculating the growth of the pathogen as a percentage of water control.

CC[C@H](C)[C@H](NC(=O)CN)C(=O)NCC(=O)N[C@@H](C)C(=O)N[C@H](C(=O)N[C@@H](CC(C)C)C(=O)N[C@@H](CCCCN)C(=O)N[C@H](C(=O)N[C@@H](CC(C)C)C(=O)N[C@H](C(=O)N[C@H](C(=O)NCC(=O)N[C@@H](CC(C)C)C(=O)N1CCC[C@H]1C(=O)N[C@@H](C)C(=O)N[C@@H](CC(C)C)C(=O)N[C@H](C(=O)N[C@@H](CO)C(=O)N[C@@H](Cc1c[nH]c2ccccc12)C(=O)N[C@H](C(=O)N[C@@H](CCCCN)C(=O)N[C@@H](CCCNC(=N)N)C(=O)N[C@@H](CCCCN)C(=O)N[C@@H](CCCNC(=N)N)C(=O)N[C@@H](CCC(N)=O)C(=O)N[C@@H](CCC(N)=O)C(N)=O)[C@@H](C)CC)[C@@H](C)CC)[C@@H](C)O)[C@@H](C)O)C(C)C)C(C)C [MELLITIN]
FUNGAL GROWTH IN PERCENTAGE OF CONTROL (test solution 5: lytic peptide 20 ppm alone, 48 hours, 23° C.): 79.65 percentage of control
FUNGAL GROWTH IN PERCENTAGE OF CONTROL (test solution 6: lytic peptide 60 ppm alone, 48 hours, 23° C.): 65.96 percentage of control
FUNGAL GROWTH IN PERCENTAGE OF CONTROL (test solution 7: lytic peptide 200 ppm alone, 48 hours, 23° C.): 27.37 percentage of control
FUNGAL GROWTH IN PERCENTAGE OF CONTROL (test solution 12: lytic peptide 20 ppm + chitinase 1/10 c): 62.81 percentage of control
FUNGAL GROWTH IN PERCENTAGE OF CONTROL (test solution 13: lytic peptide 60 ppm + chitinase 1/10 c): 57.54 percentage of control
FUNGAL GROWTH IN PERCENTAGE OF CONTROL (test solution 14: lytic peptide 200 ppm + chitinase 1/10 c): 22.46 percentage of control
FUNGAL GROWTH IN PERCENTAGE OF CONTROL (test solution 15: lytic peptide 20 ppm + chitinase 1/100 c): 73.33 percentage of control
FUNGAL GROWTH IN PERCENTAGE OF CONTROL (test solution 16: lytic peptide 60 ppm + chitinase 1/100 c): 65.26 percentage of control
FUNGAL GROWTH IN PERCENTAGE OF CONTROL (test solution 17: lytic peptide 200 ppm + chitinase 1/100 c): 25.61 percentage of control
FUNGAL GROWTH IN PERCENTAGE OF CONTROL (test solution 18: lytic peptide 20 ppm + beta-1,3-glucanase 1/10 c): 14.74 percentage of control
FUNGAL GROWTH IN PERCENTAGE OF CONTROL (test solution 19: lytic peptide 60 ppm + beta-1,3-glucanase 1/10 c): 11.93 percentage of control
FUNGAL GROWTH IN PERCENTAGE OF CONTROL (test solution 20: lytic peptide 200 ppm + beta-1,3-glucanase 1/10 c): 6.32 percentage of control
FUNGAL GROWTH IN PERCENTAGE OF CONTROL (test solution 21: lytic peptide 20 ppm + beta-1,3-glucanase 1/100 c): 61.40 percentage of control
FUNGAL GROWTH IN PERCENTAGE OF CONTROL (test solution 22: lytic peptide 60 ppm + beta-1,3-glucanase 1/100 c): 57.19 percentage of control
FUNGAL GROWTH IN PERCENTAGE OF CONTROL (test solution 23: lytic peptide 200 ppm + beta-1,3-glucanase 1/100 c): 25.96 percentage of control
FUNGAL GROWTH IN PERCENTAGE OF CONTROL (test solution 24: lytic peptide 20 ppm + chitinase 1/10 c + beta-1,3-glucanase 1/10 c): 10.53 percentage of control
FUNGAL GROWTH IN PERCENTAGE OF CONTROL (test solution 25: lytic peptide 60 ppm + chitinase 1/10 c + beta-1,3-glucanase 1/10 c): 7.37 percentage of control
FUNGAL GROWTH IN PERCENTAGE OF CONTROL (test solution 26: lytic peptide 200 ppm + chitinase 1/10 c + beta-1,3-glucanase 1/10 c): 0.00 percentage of control
FUNGAL GROWTH IN PERCENTAGE OF CONTROL (test solution 27: lytic peptide 20 ppm + chitinase 1/100 c + beta-1,3-glucanase 1/100 c): 22.72 percentage of control
FUNGAL GROWTH IN PERCENTAGE OF CONTROL (test solution 28: lytic peptide 60 ppm + chitinase 1/100 c + beta-1,3-glucanase 1/100 c): 22.11 percentage of control
FUNGAL GROWTH IN PERCENTAGE OF CONTROL (test solution 29: lytic peptide 200 ppm + chitinase 1/100 c + beta-1,3-glucanase 1/100 c): 18.75 percentage of control
